Drawing on patent US12605369B2, “Amido-substituted heterocyclic compounds and methods of use thereof for the treatment of herpes viruses” (Merck Sharp & Dohme LLC, priority 2019, dated 2026), this text covers EC50 and IC50 for four compounds.

Sequences of proteins named here, by UniProt entry; tags and fusion partners are left off.
UniProt P09252, whole entry: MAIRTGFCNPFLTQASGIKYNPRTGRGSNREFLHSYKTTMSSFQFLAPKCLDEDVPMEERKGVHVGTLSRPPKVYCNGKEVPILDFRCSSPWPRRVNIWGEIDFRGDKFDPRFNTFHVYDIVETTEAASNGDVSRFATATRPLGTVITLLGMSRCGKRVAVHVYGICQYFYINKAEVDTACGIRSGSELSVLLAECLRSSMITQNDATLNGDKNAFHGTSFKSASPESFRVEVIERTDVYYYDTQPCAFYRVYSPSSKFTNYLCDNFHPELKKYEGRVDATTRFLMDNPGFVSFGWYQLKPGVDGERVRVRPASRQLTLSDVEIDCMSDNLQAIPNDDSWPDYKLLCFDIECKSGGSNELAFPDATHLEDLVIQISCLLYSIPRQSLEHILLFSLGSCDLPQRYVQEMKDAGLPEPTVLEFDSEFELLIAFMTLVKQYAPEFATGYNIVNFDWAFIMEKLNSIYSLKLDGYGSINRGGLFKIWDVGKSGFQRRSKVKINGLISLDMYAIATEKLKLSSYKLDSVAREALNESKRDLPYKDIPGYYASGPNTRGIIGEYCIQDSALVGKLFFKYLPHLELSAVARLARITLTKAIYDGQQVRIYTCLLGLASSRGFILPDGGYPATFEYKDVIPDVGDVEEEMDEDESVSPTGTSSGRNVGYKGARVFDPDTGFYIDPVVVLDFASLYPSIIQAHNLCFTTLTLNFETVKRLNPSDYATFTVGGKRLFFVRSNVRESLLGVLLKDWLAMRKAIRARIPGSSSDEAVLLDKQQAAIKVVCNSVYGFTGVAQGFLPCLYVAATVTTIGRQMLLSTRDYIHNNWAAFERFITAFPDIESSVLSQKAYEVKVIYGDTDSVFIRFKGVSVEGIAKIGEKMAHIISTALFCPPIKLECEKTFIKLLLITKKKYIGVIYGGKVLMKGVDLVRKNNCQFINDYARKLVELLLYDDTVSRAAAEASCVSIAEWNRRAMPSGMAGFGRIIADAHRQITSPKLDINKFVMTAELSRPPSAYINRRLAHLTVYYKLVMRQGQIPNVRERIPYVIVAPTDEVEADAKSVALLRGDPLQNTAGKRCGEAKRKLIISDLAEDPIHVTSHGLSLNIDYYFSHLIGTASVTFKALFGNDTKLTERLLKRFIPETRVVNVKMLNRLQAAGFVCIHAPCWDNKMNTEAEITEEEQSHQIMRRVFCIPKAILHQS
UniProt P08546, whole entry: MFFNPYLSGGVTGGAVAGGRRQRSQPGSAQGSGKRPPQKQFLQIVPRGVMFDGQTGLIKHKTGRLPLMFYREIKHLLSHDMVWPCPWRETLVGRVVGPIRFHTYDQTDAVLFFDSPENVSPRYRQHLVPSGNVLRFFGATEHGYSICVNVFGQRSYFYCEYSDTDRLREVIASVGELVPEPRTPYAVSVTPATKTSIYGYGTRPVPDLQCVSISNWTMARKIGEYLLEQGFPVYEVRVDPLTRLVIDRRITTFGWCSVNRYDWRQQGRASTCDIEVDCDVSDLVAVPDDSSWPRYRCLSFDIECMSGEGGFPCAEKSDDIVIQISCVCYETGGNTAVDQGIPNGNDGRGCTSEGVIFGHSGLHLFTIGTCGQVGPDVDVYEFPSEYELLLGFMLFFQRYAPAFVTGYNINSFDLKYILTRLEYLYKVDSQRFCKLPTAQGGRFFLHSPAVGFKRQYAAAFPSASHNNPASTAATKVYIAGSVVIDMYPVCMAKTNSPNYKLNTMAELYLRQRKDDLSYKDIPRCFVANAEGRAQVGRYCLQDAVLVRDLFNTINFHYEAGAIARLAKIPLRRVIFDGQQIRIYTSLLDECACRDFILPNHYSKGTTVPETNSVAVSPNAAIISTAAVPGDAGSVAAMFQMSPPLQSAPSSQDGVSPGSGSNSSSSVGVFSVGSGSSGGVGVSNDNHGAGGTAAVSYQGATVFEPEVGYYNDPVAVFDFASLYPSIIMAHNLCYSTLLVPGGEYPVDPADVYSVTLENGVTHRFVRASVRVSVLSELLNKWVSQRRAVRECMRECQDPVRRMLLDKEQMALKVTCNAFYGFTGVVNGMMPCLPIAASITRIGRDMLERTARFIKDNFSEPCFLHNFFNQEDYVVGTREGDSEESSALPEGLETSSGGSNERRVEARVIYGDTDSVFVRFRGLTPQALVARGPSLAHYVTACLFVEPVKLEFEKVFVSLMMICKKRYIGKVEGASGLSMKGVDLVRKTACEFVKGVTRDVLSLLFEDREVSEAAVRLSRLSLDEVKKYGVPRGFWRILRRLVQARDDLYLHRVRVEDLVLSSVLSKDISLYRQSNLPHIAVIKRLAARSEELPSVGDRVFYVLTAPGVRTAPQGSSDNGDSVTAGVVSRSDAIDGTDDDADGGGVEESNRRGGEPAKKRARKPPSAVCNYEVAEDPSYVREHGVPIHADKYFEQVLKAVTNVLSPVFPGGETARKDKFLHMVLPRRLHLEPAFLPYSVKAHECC

One assay relates to HSV-2 Strain G. The assay is described as follows: Viral qPCR assay, HSV-2 (Example 14). Type of assay: cell-based. The settings on record: read-out: HSV2 Cell EC50; Strain G in Vero or MRCS cells, 0.004-0.4 pfu/cell, ~72 hours, viral genome copy number by qPCR. The procedure:
(§1) MRCS and Vero cells were obtained from ATCC and were maintained at 37° C./5% CO2/90% relative humidity in Minimal Essential Medium with 10% fetal bovine serum, […], 100 units/mL penicillin and 100 ug/mL streptomycin. Assay plates were prepared by dispensing compounds dissolved in DMSO into wells of 384 well collagen-coated plates using an ECHO acoustic dispenser. Each test compound was tested in a 10-point, serial 3-fold dilution. Controls included uninfected cells and infected cells treated only with DMSO. Assays were initiated by mixing selected cells, in suspension, with virus, and dispensing 50 μl/well infected cells to pre-plated compounds. […] Levels of a viral gene were measured in 10 ul qPCR assays using TaqMan® Gene Expression Master Mix (Applied Biosystems) and an 7900HT Fast Real-Time PCR System with 384-Well Block Module. 7-point, serial 10-fold dilutions of a plasmid standard were run on each plate to generate a standard curve, and genome copies numbers were calculated by plotting experimental Ct onto linear regression of the standard curve. […] Calculated % effects were fit using a 4-parameter algorithm, and EC50 was reported. • HCMV: Strain AD169 was assayed in MRC-5 cells and was used at 0.05-0.1 pfu/cell. […]
Consider `COc1nc(N2CCC(c3ccc(Cl)cc3)C2=O)ccc1C[C@H]1COC(=O)N1` (single isomer, unassigned), for which the EC50 (usually the midpoint of the concentration-response curve) amounted to 159 nM.

In the case of `COc1nc(NC(=O)Cc2ccc(C(F)(F)F)cc2)ccc1C[C@H]1COC(=O)N1`, the EC50 amounted to 161 nM.

The next assay concerns the target varicella zoster virus DNA polymerase (Varicella-zoster virus, UniProt P09252). The assay is described as follows: VZV polymerase assay (AlphaLISA, Example 15). Type of assay: biochemical. As to conditions: read-out: VZV IC50; VZV polymerase 0.4 nM; 30 min pre-incubation; 60 min at 37° C. The procedure: (§2) CMV and VZW Polymerase Assays
(§3) Human cytomegalovirus and varicella zoster virus DNA polymerases were expressed via baculovirus vector in SF21 cells and purified. Heterodimeric nucleic acid substrate used in the herpesvirus polymerase reactions were generated by annealing a 59-mer template to a 17-mer digoxigenin-labeled primer. Polymerase (HCMV final concentration of 0.2 nM; VZV final concentration of 0.4 nM) was combined with an inhibitor compound or DMSO in assay buffer (10 mM HEPES, pH 7.5, 25 mM KCl, 25 mM NaCl, 5 mM MgCl2, 5% glycerol, 0.67 mg/ml bovine serum albumin, and 1 mM tris(2-carboxyethyl)phosphine)), and this mixture was pre-incubated for 30 minutes at room temperature in 384-well microtiter plates. The polymerization reaction was initiated by the addition of template/primer substrate (final concentration: 1.6 nM) and dNTPs (final concentration: 24 nM dCTP, 24 nMdGTP, 16 nM dATP, 16 nM dTTP, and 0.8 nM biotin-dUTP). After a 60 minute incubation period at 37° C., the reactions were terminated using quench buffer (25 mM HEPES pH 7.5, 100 mM NaCl, 0.25% Tween-20, 12 mM EDTA, and 1 mg/ml bovine serum albumin). Incorporation of biotinylated UTP was detected with 2.5-5 μg/mL anti-DIG AlphaLISA acceptor beads and 5-10 μg/mL streptavidin AlphaLISA donor beads (PerkinElmer). Compound effects were normalized to the window defined by the controls (DMSO only and pre-quenched wells) and were fit using a 4-parameter algorithm to report an IC50.
Background: Bead proximity is the source of the signal in Alpha formats.
In the case of `COc1nc(N2CCC(c3ccc(Cl)cc3)C2=O)ccc1C[C@H]1COC(=O)N1` (single isomer, unassigned), the IC50 (in general, the concentration at which inhibition is half-maximal) came out at 0.4 nM.

Take `COc1nc(NC(=O)Cc2ccc(Cl)cc2CN(C)C)ccc1C[C@H]1COC(=O)N1`: the IC50 was 108 nM.

Consider `COc1nc(NC(=O)Cc2ccc(C(F)(F)F)cc2)ccc1C[C@H]1COC(=O)N1`, for which the IC50 was determined as 0.8 nM.

The next assay relates to HSV-1 Strain F. In words: Viral qPCR assay, HSV-1 (Example 14). Type of assay: cell-based. The settings on record: read-out: HSV1 Cell EC50; Strain F in Vero or MRCS cells, 0.0005-0.004 pfu/cell, ~72 hours, viral genome copy number by qPCR. As for the experimental part: as §1
On the technique in general: In qPCR the cycle at which signal appears reflects the starting amount.
As for `COc1nc(N2CCC(c3ccc(Cl)cc3)C2=O)ccc1C[C@H]1COC(=O)N1` (single isomer, unassigned), the EC50 came to 215 nM.

For the compound `COc1nc(NC(=O)Cc2ccc(C(F)(F)F)cc2)ccc1C[C@H]1COC(=O)N1`, the EC50 was found to be 198 nM.

In another assay the test system is HCMV Strain AD169. In words: Viral qPCR assay, HCMV (Example 14). Type of assay: cell-based. The settings on record: read-out: CMV Cell EC50; Strain AD169 in MRC-5 cells, 0.05-0.1 pfu/cell, ~72 hours, viral genome copy number by qPCR; growth media or 50% fetal bovine serum. As for the experimental part:
MRCS and Vero cells were obtained from ATCC and were maintained at 37° C./5% CO2/90% relative humidity in Minimal Essential Medium with 10% fetal bovine serum, […], 100 units/mL penicillin and 100 ug/mL streptomycin. Assay plates were prepared by dispensing compounds dissolved in DMSO into wells of 384 well collagen-coated plates using an ECHO acoustic dispenser. Each test compound was tested in a 10-point, serial 3-fold dilution. Controls included uninfected cells and infected cells treated only with DMSO. Assays were initiated by mixing selected cells, in suspension, with virus, and dispensing 50 μl/well infected cells to pre-plated compounds. Plates were incubated at 37° C./5% CO2/90% relative humidity for ˜72 hours to permit genomic replication, and infected cells were lysed by the addition of an equal volume of lysis buffer (10 mM Tris-HCl, pH8, 50 mM KCl, 2 mM MgCl2, 0.45% NP-40, 0.45% Tween-20, and 100 μg/mL proteinase K). An aliquot of the lysate was then transferred to a 384-well PCR plate and incubated at 56° C. for 1 hour, and then at 95° C. for 10 minutes. Levels of a viral gene were measured in 10 ul qPCR assays using TaqMan® Gene Expression Master Mix (Applied Biosystems) and an 7900HT Fast Real-Time PCR System with 384-Well Block Module. 7-point, serial 10-fold dilutions of a plasmid standard were run on each plate to generate a standard curve, and genome copies numbers were calculated by plotting experimental Ct onto linear regression of the standard curve. Compound effects on viral genome copy number were normalized to the window defined by the controls. Calculated % effects were fit using a 4-parameter algorithm, and EC50 was reported. • HCMV: Strain AD169 was assayed in MRC-5 cells and was used at 0.05-0.1 pfu/cell. The assays were performed in either growth media or in the same media with 50% fetal bovine serum. Primer-probe set was Thermo Fisher Assay ID=AIFATFK. • HSV-1: Strain F was assayed in Vero or MRCS cells and was used at 0.0005-0.004 pfu/cell in growth medium. Primer-probe set was Thermo Fisher Assay ID=AIBJZIB. • HSV-2: Strain G was assayed in Vero or MRCS cells and was used at 0.004-0.4 pfu/cell in growth medium. Primer-probe set was Thermo Fisher Assay ID=AICSXOJ.
In the case of `COc1nc(N2CCC(c3ccc(Cl)cc3)C2=O)ccc1C[C@H]1COC(=O)N1` (single isomer, unassigned), the EC50 came to 311 nM.

On to `COc1nc(NC(=O)Cc2ccc(Cl)cc2CN(C)C)ccc1C[C@H]1COC(=O)N1`, for which the EC50 is more than 9900 nM.

Take `COc1nc(NC(=O)Cc2ccc(C(F)(F)F)cc2)ccc1C[C@H]1COC(=O)N1`: the EC50 stood at 170 nM.

For `COc1nc(N2CCN(Cc3ccc(Cl)cc3)C2=O)ccc1C[C@H]1COC(=O)N1`, the EC50 stood at 409 nM.

Another assay deals with Human cytomegalovirus DNA polymerase (Human cytomegalovirus, UniProt P08546). The assay is described as follows: CMV polymerase assay (AlphaLISA, Example 15). Type of assay: biochemical. The settings on record: read-out: CMV IC50; HCMV polymerase 0.2 nM; 30 min pre-incubation; 60 min at 37° C. As for the experimental part:
as §2, §3
On to `COc1nc(N2CCC(c3ccc(Cl)cc3)C2=O)ccc1C[C@H]1COC(=O)N1` (single isomer, unassigned), for which the IC50 is 5.8 nM.

For `COc1nc(NC(=O)Cc2ccc(Cl)cc2CN(C)C)ccc1C[C@H]1COC(=O)N1`, the IC50 was found to be 2440 nM.

Consider `COc1nc(NC(=O)Cc2ccc(C(F)(F)F)cc2)ccc1C[C@H]1COC(=O)N1`, for which the IC50 is 8 nM.

Take `COc1nc(N2CCN(Cc3ccc(Cl)cc3)C2=O)ccc1C[C@H]1COC(=O)N1`: the IC50 stood at 35 nM.
